The source of these data is publication PMC6472032 (Marine Drugs, 2019).

The chains behind the UniProt entries cited, without tags or fusion partners. Where a name states a change or a piece, a line headed by the entry shows the natural chain unless it says otherwise.
UniProt P02716: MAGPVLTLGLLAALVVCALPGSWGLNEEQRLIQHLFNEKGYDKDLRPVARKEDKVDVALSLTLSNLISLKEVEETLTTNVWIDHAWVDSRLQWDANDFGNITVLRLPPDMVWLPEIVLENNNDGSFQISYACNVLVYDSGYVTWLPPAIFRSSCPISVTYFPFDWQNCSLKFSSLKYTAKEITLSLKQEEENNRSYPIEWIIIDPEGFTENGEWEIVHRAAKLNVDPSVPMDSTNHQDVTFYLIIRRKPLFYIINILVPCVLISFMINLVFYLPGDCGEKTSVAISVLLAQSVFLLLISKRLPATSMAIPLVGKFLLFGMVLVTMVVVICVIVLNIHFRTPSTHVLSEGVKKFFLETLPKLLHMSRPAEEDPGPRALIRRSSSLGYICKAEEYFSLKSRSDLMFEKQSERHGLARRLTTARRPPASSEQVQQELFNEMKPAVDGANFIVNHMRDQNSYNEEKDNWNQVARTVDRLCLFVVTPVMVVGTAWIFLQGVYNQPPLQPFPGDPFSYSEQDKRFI
UniProt P04756: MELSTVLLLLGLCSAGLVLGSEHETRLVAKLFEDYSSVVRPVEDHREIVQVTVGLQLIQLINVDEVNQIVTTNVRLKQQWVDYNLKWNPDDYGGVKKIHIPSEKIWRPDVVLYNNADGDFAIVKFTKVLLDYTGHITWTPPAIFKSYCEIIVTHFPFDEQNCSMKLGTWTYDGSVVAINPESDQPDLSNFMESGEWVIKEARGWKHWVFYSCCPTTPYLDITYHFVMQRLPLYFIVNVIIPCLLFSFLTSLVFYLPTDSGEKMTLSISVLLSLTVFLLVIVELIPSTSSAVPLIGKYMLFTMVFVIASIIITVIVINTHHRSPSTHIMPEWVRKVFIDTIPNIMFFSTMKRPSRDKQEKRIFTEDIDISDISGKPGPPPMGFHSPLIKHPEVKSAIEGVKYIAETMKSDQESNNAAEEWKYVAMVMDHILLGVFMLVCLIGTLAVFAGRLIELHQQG
UniProt P20782: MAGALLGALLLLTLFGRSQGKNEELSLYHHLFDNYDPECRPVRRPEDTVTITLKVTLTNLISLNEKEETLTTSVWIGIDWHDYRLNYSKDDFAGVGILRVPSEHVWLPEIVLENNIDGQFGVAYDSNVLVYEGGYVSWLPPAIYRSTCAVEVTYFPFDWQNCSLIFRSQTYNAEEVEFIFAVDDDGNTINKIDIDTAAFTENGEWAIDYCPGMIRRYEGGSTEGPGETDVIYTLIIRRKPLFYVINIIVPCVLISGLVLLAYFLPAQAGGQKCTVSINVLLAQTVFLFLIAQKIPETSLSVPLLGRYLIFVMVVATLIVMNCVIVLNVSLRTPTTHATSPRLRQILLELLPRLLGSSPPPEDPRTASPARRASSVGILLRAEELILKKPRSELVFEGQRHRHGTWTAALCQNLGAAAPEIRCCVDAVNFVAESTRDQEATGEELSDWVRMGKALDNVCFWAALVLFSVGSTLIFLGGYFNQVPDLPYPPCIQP

The target in this assay is mouse α1β1δε nAChR (Mus musculus, UniProt P02716+P04756+P20782). In words: Electrophysiological selectivity assay, mouse α1β1δε nAChR. The note with it: electrophysiological assays, data not shown.
For the molecule `N=C(N)NCCC[C@@H]1NC(=O)[C@@H]2CSSC[C@H](NC(=O)CN)C(=O)N[C@@H](CSSC[C@@H](C(=O)N[C@H](CCCNC(=N)N)C(=O)O)NC(=O)[C@H](CCCNC(=N)N)NC(=O)[C@H](Cc3ccc(O)cc3)NC1=O)C(=O)N[C@@H](CO)C(=O)N[C@@H](CC(=O)O)C(=O)N1CCC[C@H]1C(=O)N[C@@H](CCCNC(=N)N)C(=O)N2` [Compound 13], the “activity against mouse α1β1δε nAChR” value is “inactive”.
For the molecule `N=C(N)NCCC[C@@H](NC(=O)[C@@H]1CSSC[C@@H]2NC(=O)[C@@H](NC(=O)CN)CSSC[C@H](NC(=O)[C@@H](CCCNC(=N)N)NC(=O)[C@@H]3CCCN3C(=O)[C@H](CC(=O)O)NC(=O)[C@H](CO)NC2=O)C(=O)N[C@H](CCCNC(=N)N)C(=O)N[C@@H](Cc2ccc(O)cc2)C(=O)N[C@H](CCCNC(=N)N)C(=O)N1)C(=O)O` [Compound 14], the “activity against mouse α1β1δε nAChR” value is “inactive”.
Take `N=C(N)NCCC[C@H]1NC(=O)[C@H](Cc2ccc(O)cc2)NC(=O)[C@@H](CCCNC(=N)N)NC(=O)[C@@H]2CSSC[C@H](NC(=O)CN)C(=O)N[C@@H](CSSC[C@@H](C(N)=O)NC1=O)C(=O)N[C@@H](CO)C(=O)N[C@@H](CC(=O)O)C(=O)N1CCC[C@H]1C(=O)N[C@H](CCCNC(=N)N)C(=O)N2` [Compound 15]: the “activity against mouse α1β1δε nAChR” value was “inactive”.
